In article PMC8669038, “Infection of wild-type mice by SARS-CoV-2 B.1.351 variant indicates a possible novel cross-species transmission route” (2021):

Target: mouse angiotensin-converting enzyme 2 (mACE2) (mouse) (UniProt Q8R0I0)
Assay: SPR

Substance: S1 (B.1.1.7) of SARS-CoV-2 spike protein (domain or fragment)
- pKd: 5.65

pKd: −log10 of the molar value.
